Measured values from several laboratories, pooled; numbers as filed in NIAID ChemDB.

All rows: tests in culture; species: Parainfluenza virus; read by: cytopathic effect; measure: EC50

Blank or dashed fields: not listed here.

structure,strain or isolate,cell line,result
NSc1ncnc2c1ncn2[C@@H]1O[C@H](CO)[C@@H](O)[C@@H]1O,TYPE 3,-,>320 µM
C=CC1=C[C@@H](n2cnc3c(N)ncnc32)[C@H](O)[C@@H]1O,TYPE 3,VERO,40 µg/mL
CO[C@H](CO)[C@@H](O)CCn1cnc2c(N)ncnc21,TYPE 3,VERO,>400 µg/mL
CC(C)Oc1ccccc1CNC(=O)c1ccc2cnccc2n1,14702 (TYPE 3),MA-104,28.1 µM
NC(=S)c1cncc([C@@H]2O[C@H](CO)[C@@H](O)[C@@H]2O)c1,TYPE 3,VERO,≥100 µg/mL
Cc1cn([C@H]2OC[C@@H](CO)C2F)c(=O)[nH]c1=O,TYPE 3,VERO,>80 µg/mL
S=c1[nH]nc(-c2cn(-c3ccccc3)nc2-c2ccccc2)o1,TYPE 3,VERO,>16 µg/mL
Nc1nc(Cl)c2ccn([C@H]3CO[C@@H](CO)C3)c2n1,TYPE 7,VERO,>200 µg/mL
N#Cc1cncc([C@H]2O[C@H](CO)[C@@H](O)[C@@H]2O)c1,TYPE 3,VERO,≥100 µg/mL
Nc1ncnc2c1ncn2C(CF)CCCO,TYPE 3,VERO,>400 µg/mL
Nc1ncnc2c1ncn2[C@H]1OC[C@@H](CO)C1O,TYPE 3,VERO,>80 µg/mL
CC1(CO)CCC(Cn2nnc3c(N)ncnc32)C1(C)C,TYPE 3,VERO,>40 µg/mL
CC1(C)[C@@H](CCO)C[C@H]1n1nnc2c(Cl)nc(N)nc21,TYPE 3,VERO,>200 µg/mL
O=c1[nH]n2c(-c3cn(-c4ccccc4)nc3-c3ccccc3)nnc2s1,TYPE 3,VERO,>80 µg/mL
[N-]=[N+]=NC(CBr)c1cc([C@H]2C[C@H](O)[C@@H](CO)O2)c(F)cc1F,TYPE 3,VERO,>16 µg/mL
OC[C@H]1O[C@H](c2cncc(Br)c2)[C@@H](O)[C@H]1O,TYPE 3,VERO,≥100 µg/mL
CC1(C)[C@@H](CO)CC[C@@]1(C)Cn1nnc2c(=O)[nH]cnc21,TYPE 3,VERO,>400 µg/mL
CCC(Sc1ncnc2c1cnn2CCCCO)C(N)=O,TYPE 3,VERO,>400 µg/mL
CON=C[C@H]1O[C@@H](n2cnc3c(N)ncnc32)[C@H](O)[C@@H]1O,TYPE 3,VERO,>100 µg/mL
NSc1ncnc2c1ncn2[C@H]1C[C@H](O)[C@@H](CO)O1,TYPE 3,-,>320 µM
CO[C@H](CO)[C@@H](O)CCn1cc(C)c(=O)[nH]c1=O,TYPE 3,VERO,>400 µg/mL
Nc1ncnc2c1ncn2[C@@H]1O[C@H](CO)[C@](O)(C(F)(F)F)[C@H]1O,TYPE 3,VERO,300 µg/mL
Nc1nc(=O)n([C@@H]2O[C@H](COP(=O)([O-])[O-])[C@@H](O)[C@H]2O)cc1F,C243 (TYPE 3),VERO,20 µM
C=C(N=CC)c1nc(-c2ccc(C)cc2)n(C2O[C@H](CO)[C@@H](O)[C@H](O)[C@H]2O)n1,TYPE 3,VERO,>100 µg/mL
CC(Sc1ncnc2c1cnn2COCC(O)CO)C(N)=O,TYPE 3,VERO,>400 µg/mL
C=C(N=CC)c1nc(-c2ccc(OC)cc2)n([C@@H]2O[C@H](CO)[C@@H](O)[C@H]2O)n1,TYPE 3,VERO,>100 µg/mL
CCOC(=O)CSc1nnc(-c2cn(-c3ccccc3)nc2-c2ccccc2)n1N,TYPE 3,VERO,>16 µg/mL
Cc1cn([C@H]2C/C(=N\O)[C@@H](CO)O2)c(=O)[nH]c1=O,-,VERO,>200 µg/mL
Nc1nccc2c1ncn2[C@@H]1C[C@H](CO)[C@@H](O)[C@H]1O,TYPE 3,VERO,0.2 µg/mL
Cc1cn([C@@H]2OC[C@H](CO)[C@H]2N=[N+]=[N-])c(=O)[nH]c1=O,TYPE 3,VERO,>80 µg/mL
CC1(CO)CCC(Cn2nnc3c(=O)[nH]cnc32)C1(C)C,TYPE 3,VERO,>400 µg/mL
CC(=O)Nc1nc2c(CC(O)CO)ncn2c(=O)[nH]1,TYPE 3,VERO,>200 µg/mL
CO[C@H](CO)[C@@H](O)CCn1ccc(N)nc1=O,TYPE 3,VERO,>400 µg/mL
CCCCCCCCCCCCCCCCO[C@H]1N([C@H]2C[C@H](N=[N+]=[N-])[C@@H](CO)O2)C(=O)NC(=O)[C@]1(C)Br,HA-1/C243,VERO,>500 µg/mL
CC=NC(=N)c1nc(-c2ccc(C)cc2)n(C/C=C/c2ccccc2)n1,TYPE 3,VERO,>10 µg/mL
Cc1cc(NCCCCCCCCNc2cc(C)nc3cc(N(C)C)ccc23)c2ccc(N(C)C)cc2n1,HA-1/C243,VERO,>500 µg/mL
Cc1cn([C@@H]2O[C@H](CO)[C@](O)(C(F)(F)F)[C@H]2O)c(=O)[nH]c1=O,TYPE 3,VERO,>200 µg/mL
CC=NC(=N)c1nc(-c2cccc(C)c2)n(C/C=C/c2ccccc2)n1,TYPE 3,VERO,>10 µg/mL
Nc1nc2c(ncn2CC[C@H](O)CCO)c(=O)[nH]1,TYPE 3,VERO,>400 µg/mL
Nc1ccn([C@@H]2O[C@H](CO)[C@@H](O)[C@@H]2O)c(=O)n1,C243 (TYPE 3),VERO,>500 µM
CN(C)C(=O)COC(=O)Cc1ccc(OC(=O)c2ccc(N=C(N)N)cc2)cc1.COS(=O)(=O)O,HA-1/C243,VERO,>500 µg/mL
C=CCc1nc(C)n2c(=O)[nH]cnc12,TYPE 3,VERO,>200 µg/mL
CC(Sc1ncnc2c1cnn2CCCCO)C(N)=O,TYPE 3,VERO,>400 µg/mL
CC=NC(=N)c1nc(-c2cccc(C)c2)n(Cc2ccccc2)n1,TYPE 3,VERO,>10 µg/mL
Cc1nn2c(-c3cn(-c4ccccc4)nc3-c3ccccc3)nnc2s1,TYPE 3,VERO,>3.2 µg/mL
Cc1cn(C(CF)CCCO)c(=O)[nH]c1=O,TYPE 3,VERO,>400 µg/mL
OC[C@H]1O[C@H](c2cc(Cl)c(F)cc2F)C[C@@H]1O,TYPE 3,VERO,>80 µg/mL
Nc1ncnc2c1ncn2[C@@H]1O[C@H](C=NO)[C@@H](O)[C@H]1O,TYPE 3,VERO,>1 µg/mL
NS(=O)c1ncnc2c1ncn2[C@H]1C[C@H](O)[C@@H](CO)O1,TYPE 3,-,>320 µM
CC1(C)[C@@H](CCO)C[C@H]1n1nnc2c(=O)[nH]cnc21,TYPE 3,VERO,100 µg/mL
Nc1ncnc2c1ncn2[C@@H]1C=C(CCl)[C@@H](O)[C@H]1O,TYPE 3,VERO,7 µg/mL
CC1(C)[C@@H](CO)CC[C@@]1(C)Cn1cc(Br)c(=O)[nH]c1=O,TYPE 3,VERO,>400 µg/mL
NC(=O)c1cncc([C@H]2O[C@H](CO)[C@@H](O)[C@@H]2O)c1,TYPE 3,VERO,≥100 µg/mL
CC=NC(=N)c1nc(-c2cccc(OC)c2)n(COCCO)n1,TYPE 3,VERO,>100 µg/mL
CC(C)CS[C@H]1C[C@@H](n2cnc3c(N)ncnc32)[C@H](O)[C@@H]1O,TYPE 3,HeLa,>80 µg/mL
C=CCc1ncn2c(=O)[nH]c(NC(C)=O)nc12,TYPE 3,VERO,>200 µg/mL
CC1(C)[C@@H](CCO)C[C@H]1n1nnc2c(N)nc(N)nc21,TYPE 3,VERO,300 µg/mL
Nc1ncnc2c1ncn2[C@@H]1O[C@H](C(O)O)[C@@H](O)[C@@H]1O,TYPE 3,VERO,150 µg/mL
CC1(CO)CCC(Cn2cnc3c(=O)[nH]cnc32)C1(C)C,TYPE 3,VERO,>200 µg/mL
CC1(C)[C@@H](CO)CC[C@@]1(C)Cn1cnc2c(=O)[nH]cnc21,TYPE 3,VERO,>400 µg/mL
C=C(N=CC)c1nc(-c2ccccc2)n([C@@H]2O[C@H](CO)[C@@H](O)[C@H]2O)n1,TYPE 3,VERO,>100 µg/mL
Nc1nc(Cl)c2ncn([C@H]3CO[C@@H](CO)C3)c2n1,TYPE 5,VERO,100 µg/mL
C=C(N=CC)c1nc(-c2cccc(C)c2)n(C2O[C@H](CO)[C@@H](O)[C@H](O)[C@H]2O)n1,TYPE 3,VERO,>100 µg/mL
NC(=O)c1cncc([C@H]2O[C@H](CO)[C@H](O)[C@@H]2O)c1,TYPE 3,VERO,≥100 µg/mL

A second listing of 6 rows from above:

structure | strain or isolate | cell line | result
NSc1ncnc2c1ncn2[C@@H]1O[C@H](CO)[C@@H](O)[C@@H]1O | TYPE 3 | - | >320 µM
C=C(N=CC)c1nc(-c2cccc(C)c2)n(C2O[C@H](CO)[C@@H](O)[C@H](O)[C@H]2O)n1 | TYPE 3 | VERO | >100 µg/mL
C=C(N=CC)c1nc(-c2ccccc2)n([C@@H]2O[C@H](CO)[C@@H](O)[C@H]2O)n1 | TYPE 3 | VERO | >100 µg/mL
S=c1[nH]nc(-c2cn(-c3ccccc3)nc2-c2ccccc2)o1 | TYPE 3 | VERO | >16 µg/mL
Cc1cn(C(CF)CCCO)c(=O)[nH]c1=O | TYPE 3 | VERO | >400 µg/mL
Nc1ncnc2c1ncn2[C@H]1OC[C@@H](CO)C1O | TYPE 3 | VERO | >80 µg/mL

ECn: concentration that inhibits the pathogen or its effect by n%. Conditions beyond the fields shown may differ between rows.